Measurements: paper PMC4671295

Key:
Assay in all cases: purified protein
Conditions in all cases: pH 8.0; 25.0 °C
[1] = tested on: CC(=O)SCCNC(=O)CCNC(=O)[C@H](O)C(C)(C)COP(=O)(O)OP(=O)(O)OC[C@H]1O[C@@H](n2cnc3c(N)ncnc32)[C@H](O)[C@@H]1OP(=O)(O)O
[2] = tested on: CN[C@@H]1[C@@H](O)[C@@H](O[C@@H]2[C@@H](O)[C@H](O[C@H]3OC(CN)=CC[C@H]3N)[C@@H](N)C[C@H]2N)OC[C@]1(C)O
[3] = tested on: NCC[C@H](O)C(=O)N[C@@H]1C[C@H](N)[C@@H](O[C@H]2O[C@H](CN)[C@@H](O)[C@H](O)[C@H]2O)[C@H](O)[C@H]1O[C@H]1O[C@H](CO)[C@@H](O)[C@H](N)[C@H]1O
[4] = tested on: NC[C@@H]1O[C@H](O[C@H]2[C@@H](O)[C@H](O[C@@H]3[C@@H](O)[C@H](N)C[C@H](N)[C@H]3O[C@H]3O[C@H](CN)[C@@H](O)[C@H](O)[C@H]3N)O[C@@H]2CO)[C@H](N)[C@@H](O)[C@@H]1O
[5] = tested on: NC[C@@H]1O[C@H](O[C@H]2[C@@H](O)[C@H](O[C@@H]3[C@@H](O)[C@H](N)C[C@H](N)[C@H]3O[C@H]3O[C@H](CO)[C@@H](O)[C@H](O)[C@H]3N)O[C@@H]2CO)[C@H](N)[C@@H](O)[C@@H]1O
[6] = tested on: NC[C@H]1O[C@H](O[C@H]2[C@H](O)[C@@H](O[C@H]3O[C@H](CO)[C@@H](O)[C@H](N)[C@H]3O)[C@H](N)C[C@@H]2N)[C@H](O)[C@@H](O)[C@@H]1O

Eis_Ban (Bacillus anthracis str. Sterne)
Km [1]: 32 ± 8 µM | kcat/Km [1]: 6700 M⁻¹ s⁻¹ | Km [2]: 76 ± 31 µM | kcat/Km [2]: 225 M⁻¹ s⁻¹ | Km [3]: 1070 ± 470 µM | kcat/Km [3]: 92 M⁻¹ s⁻¹ | Km [4]: 469 ± 70 µM | kcat/Km [4]: 397 M⁻¹ s⁻¹ | Km [5]: 44 ± 11 µM | kcat/Km [5]: 430 M⁻¹ s⁻¹ | Km [6]: 57 ± 9 µM | kcat/Km [6]: 2370 M⁻¹ s⁻¹
